## Primary screen of a compound library

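Whole-cell growth test on Mycobacterium tuberculosis, read after 3 days in glucose-containing 7H9 medium; the read-out is not stated. Concentration: 500 µM. Direction is inferred from retests: higher values go with more growth inhibition. About 18,000 compounds were tested under these conditions; 7.9% (about 1,400) showed 50% or more at least once.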

The filed quantity is “Percent Effect” (%). The controls that fix the scale are not given in the record; negative values are as filed. The entries come from a sample that favours strong results.

| Compound | percent effect |
|---|---|
| `CN(C)S(=O)(=O)N1CCCC1c1ccsc1` (stereo not given) | 51.95% |
| `N#Cc1nc(NCCSCCCO)ccc1Cl` | 75.58% |
| `COc1cccc(OC(C)CN)c1` (stereo not given) | 5.698% |
| `CN(C)S(=O)(=O)c1cccc(CN2CCCC2)c1` | 51.83% |
| `Cc1ccc(C)c(S(N)(=O)=O)c1` | 18.97% |
| `COc1cc(I)c(C(=O)N2CCC2)cc1OC` | 17.72% |
| `CC(C)(O)Cn1nnc(-c2cccs2)n1` | 68.57% |
| `COc1cc(CNc2ccc(CO)cn2)cc(OC)c1` | 38.87% |
| `CCCc1ccc(C(=O)N2CCCN(C)CC2)cc1` | 76.2% |
| `CC(O)CNC1CCS(=O)(=O)CC1` (stereo not given) | -1.338% |
| `N#Cc1ccc(CN)cc1Cl` | 19.79% |
| `CC(C(N)=O)N1CCC(=Cc2ccccc2)CC1` (stereo not given) | 68.33% |
| `c1cncc(NCc2ccsc2)c1` | 30.7% |
| `Cc1ccc(NC(=O)NC(C)(CO)CO)cc1Br` | 13.18% |
| `CCCOC1CCCN(C(=O)CSc2nc(C)n[nH]2)C1` (stereo not given) | 13.26% |
| `Cc1cccc(NCCCNC(=O)c2cccs2)n1` | 62.89% |
| `CN(C)C(CNC(=O)NCc1cc[nH]n1)c1cccs1` (stereo not given) | 19.8% |
| `Cc1ccc(C(CN)N2CCCC2)o1` (stereo not given) | 52.57% |
| `Brc1ccc2c(c1)OCCNC2` | 60.91% |
| `C[C@H](N)c1cccs1` | 11.15% |
| `O=C1COc2c(Cl)cccc21` | -30.08% |
| `CC(Nc1ccn(CC(F)(F)F)n1)C(=O)N1CCCC1` (stereo not given) | 1.317% |
| `CCC(C)n1nc(C)cc1NC(=O)NCCNC(C)=O` (stereo not given) | 9.224% |
| `CC(=O)NC(C)C(=O)Nc1ccc2c(c1)CCC2` (stereo not given) | 8.01% |
| `Cc1ccc(N2C=NS(=O)(=O)c3cccnc32)cc1C` | -6.813% |
| `CCn1nnc2cc(C(=O)NCCCC#N)ccc21` | 8.233% |
| `CCCNC(=O)CNc1cc(F)c(OC)c(F)c1` | 67.17% |
| `NC(CCO)c1ccccc1Br` (stereo not given) | 6.628% |
| `Cc1cnccc1CN(C)C(=O)Cc1ccccn1` | -9.121% |
| `CCOCCN(C)Cc1cccnc1C` | 1.698% |
| `CNC(=O)CN(C)c1nccc(C2CCCC2)n1` | 30.52% |
| `Cc1ccn(Cc2cccc(C(=O)N(C)C)c2)c(=O)c1` | 35.12% |
| `CCCc1nnc(NCc2ccc(C)cn2)o1` | 66.55% |
| `CCNC(=O)CCc1ccccc1F` | 20.67% |
| `NC(=O)C(N)c1ccc(Cl)cc1` (stereo not given) | 40.19% |
| `NC(=O)Cc1csc(-c2ccco2)n1` | 21.87% |
| `CN(CCn1cccn1)C(=O)c1ccc(CN)cc1` | 7.515% |
| `Cc1cccnc1NC(=O)COc1c(O)ccnc1C` | -6.441% |
| `CN(CCCN)C(=O)Cc1cccc(Br)c1` | 32.97% |
| `CC(=O)Nc1ccccc1CN(C)Cc1nccn1C` | 8.73% |
| `CC(C)c1cc(C(=O)N2CC[C@@H](N)C2)nn1C(C)(C)C` | 50.85% |
| `CC(C)OC1CCC(N)CC1` (stereo not given) | -16.08% |
| `CN(C)C(=O)c1cc(-c2ccncc2)on1` | 1.336% |
| `CS(=O)(=O)N1CCC(C(=O)NCC2CCCO2)CC1` (stereo not given) | 6.221% |
| `NC(=O)C1CCN(CCOc2ccc(Br)cc2)C1` (stereo not given) | 58.52% |
| `[H][C@]12CCC[C@@]([H])(CN(CCC(=O)Nc3cccnc3)C1)C2` | 33.74% |
| `COCC(C)Oc1ccc(Cl)cc1S(N)(=O)=O` (stereo not given) | 23.74% |
| `COc1cccc(CNS(=O)(=O)Cc2ccon2)c1` | 13.77% |
| `Cc1csc(NC(=O)Cn2ccc(=O)n(C)c2=O)n1` | 15.72% |
| `COc1cccc(CC(=O)N2CCNCC2)c1` | 0.6799% |
| `O=C(NC1CCCc2occc21)c1cccnc1` (stereo not given) | 58% |
| `NCc1ccnc(OCC(F)F)c1` | 29.4% |
| `CCOC(=O)c1cc(CC)n(CCC#N)n1` | 2.843% |
| `NCCC1CN(Cc2cc3ccccc3s2)CCO1` (stereo not given) | 73.14% |
| `O=S(=O)(Cc1ccon1)N1CCCC(c2ncc[nH]2)C1` (stereo not given) | -3.416% |
| `COCCC(N)c1ccco1` (stereo not given) | -11.43% |
| `COCC(=O)Nc1ccc(C(=O)c2nccn2C)cc1` | 49.47% |
| `CC(C)CN(CC(N)=O)S(=O)(=O)N(C)C1CCCCC1` | 31.03% |
| `CCCn1cc(C(=O)N2CCCC(C#N)C2)c(C)n1` (stereo not given) | -3.234% |
| `OC1(CNCc2nnc3ccccn23)CNCCOC1` (stereo not given) | -20.56% |
| `NC(=O)CCNCCc1ccccc1` | 13.66% |
| `O=C(C1CCNCC1)N1CCNCC1` | -3.708% |
| `COCCN(Cc1ccsc1)C(=O)CC1CCNC1` (stereo not given) | 65.31% |
| `O=C(Nc1ccc2[nH]ncc2c1)C1CCCO1` (stereo not given) | 26.17% |
| `NC1CS(=O)(=O)Cc2ccccc21` (stereo not given) | 0.6493% |
| `Nc1nc(N)nc(CN2CCCC2c2cccs2)n1` (stereo not given) | 58% |
| `CC(C)(C)OC(=O)NCCC(=O)NCC1CCCCN1` (stereo not given) | 6.228% |
| `COCc1n[nH]c(N)c1-c1ccc(OC)cc1` | 30.76% |
| `CN(C)CC(=O)NC(C)(C)C(=O)NCC1CCCC1` | 1.777% |
| `COCCn1cnnc1CN(C)Cc1c[nH]c(C)n1` | -3.804% |
| `Nc1nnc(SCc2coc(-c3ccccc3)n2)[nH]1` | 65.71% |
| `COc1ccc(CC(=O)NCCN(C)C)cc1OC` | -2.975% |
| `CN1CCN(S(C)(=O)=O)c2ccccc2C1` | -13.35% |
| `Cc1ncc(Cn2cc(F)ccc2=O)s1` | 52.86% |
| `Cc1ccc(NC(=O)NC[C@@H]2C[C@H](F)CN2)cc1C#N` | 45.75% |
| `CCCN1CCC(NC(=O)C2CCC2)CC1` | -3.596% |
| `Cc1ccc(S(=O)(=O)NCC(C)N)cc1Br` (stereo not given) | 36.84% |
| `CNC(=O)Cn1cc(-c2cccc3cnccc23)cn1` | 12.64% |
| `CNC(=O)C1CN(C(=O)Nc2cccc(Cl)c2Br)C1` | 12.58% |
| `CC(CO)(NCCS(C)(=O)=O)C1CCCCC1` (stereo not given) | 16.7% |
| `COCCN(CCN)C(=O)OC(C)(C)C` | 12.23% |
| `CCN1CC(NC(=O)CCc2cccnc2)CC1=O` (stereo not given) | 5.927% |
| `Cc1cccc(C(=O)NC(C)c2nnc3n2CCC3)n1` (stereo not given) | -10.25% |
| `CC(C)NS(=O)(=O)c1cc(CO)ccc1F` | 7.947% |
| `O=C(Nc1ccccc1)N(CCCO)C1CC1` | 25.04% |
| `COCCC1CN(C(=O)c2ccccc2C#N)CCO1` (stereo not given) | 18.28% |
| `Cc1ccc(S(=O)(=O)Nc2ccncc2)cc1C` | 4.802% |
| `NCc1ccc(C(=O)NC2CC2)cc1` | 11.56% |
| `NC1CCN(Cc2ccc(F)c(F)c2)CC1` | -4.06% |
| `COCCNC(=O)CN(C)Cc1ccco1` | 17.72% |
| `COc1ccc(N2CCNCC2)cc1F` | 41.03% |
| `CC(C(=O)Nc1ccc(C(N)=O)cc1)n1cccn1` (stereo not given) | 5.573% |

Repeated from the top, 12 entries:

- CN(C)S(=O)(=O)N1CCCC1c1ccsc1 (stereo not given) : 51.95%
- N#Cc1nc(NCCSCCCO)ccc1Cl : 75.58%
- COc1cccc(OC(C)CN)c1 (stereo not given) : 5.698%
- CN(C)S(=O)(=O)c1cccc(CN2CCCC2)c1 : 51.83%
- Cc1ccc(C)c(S(N)(=O)=O)c1 : 18.97%
- COc1cc(I)c(C(=O)N2CCC2)cc1OC : 17.72%
- CC(C)(O)Cn1nnc(-c2cccs2)n1 : 68.57%
- COc1cc(CNc2ccc(CO)cn2)cc(OC)c1 : 38.87%
- CCCc1ccc(C(=O)N2CCCN(C)CC2)cc1 : 76.2%
- CC(O)CNC1CCS(=O)(=O)CC1 (stereo not given) : -1.338%
- N#Cc1ccc(CN)cc1Cl : 19.79%
- CC(C(N)=O)N1CCC(=Cc2ccccc2)CC1 (stereo not given) : 68.33%

The values are deposited in ChEMBL (CHEMBL3988442, “University of Dundee, Small-Polar-MMV Screening Library” (2021)).